Measured values from several laboratories, pooled; numbers as filed in NIAID ChemDB.

Common to all: enzyme or target tests; organism: HIV-1; protein: Reverse transcriptase; measure: fold resistance

Fold resistance has wild type as its base. a–b is a range or a potency band. An empty or dashed field is not shown. Neighbouring rows are from separate reports.

| smiles | strain or isolate | changes | method | result |
|---|---|---|---|---|
| CCN1c2ncc(CCOc3ccc(-c4cccc(C(=O)O)c4)cc3C)cc2C(=O)N(C)c2cccnc21 | IIIB | RT-K103N Y181C | nucleotide incorporation / radiometric | 1 |
| Cc1ccc(-n2c(SCC(=O)Nc3ccc(S(=O)(=O)NC(C(=O)O)C(C)C)cc3Cl)nnc2C(F)F)c2c1CCCC2 |  | RT-Y188L | nucleotide incorporation / radiometric | >2 |
| CCN1c2ncc(CCOc3ccc(-c4ccc(F)c(CC(=O)O)c4)cc3C)cc2C(=O)N(C)c2cccnc21 | IIIB | RT-K103N Y181C | nucleotide incorporation / radiometric | 1 |
| CCN1c2ncc(CCOc3ccc(CCC(=O)O)c4ccccc34)cc2C(=O)N(C)c2ccc(F)nc21 |  | RT-K103N Y181C | nucleotide incorporation / radiometric | 1–10 |
| Cc1cc(-c2ccc[n+]([O-])c2)ccc1OCCc1cnc2c(c1)C(=O)N(C)c1cccnc1N2C1CC1 | IIIB | RT-K103N Y181C | nucleotide incorporation / radiometric | >2 |
| O=c1cc(Cc2ccccc2)nc(NCCCCO)[nH]1 |  | RT-V106A |  | 0.183 |
| CCN1c2ncc(CCOc3ccc(-c4ccc(CCC(=O)O)cc4)cc3C)cc2C(=O)N(C)c2cccnc21 | IIIB | RT-K103N Y181C | nucleotide incorporation / radiometric | 1 |
| CCN1c2ncc(CCOc3ccc(CCC(=O)O)c4c3CCCC4)cc2C(=O)N(C)c2ccc(Cl)nc21 |  | RT-Y188L | nucleotide incorporation / radiometric | 1–10 |
| NS(=O)(=O)c1ccc(NC(=O)CSc2nnc(Br)n2-c2ccc(C3CC3)cc2Cl)c(Cl)c1 |  | RT-Y188L | nucleotide incorporation / radiometric | >2 |
| CCOCn1c(Sc2ccccc2)c(CC)c(=O)[nH]c1=O |  | RT-Y188L | nucleotide incorporation | >234 |
| CCN1c2ncc(CCOc3ccc(/C=C(\C)C(=O)O)c4ccccc34)cc2C(=O)Nc2c(C)ccnc21 |  | RT-Y188L | nucleotide incorporation / radiometric | >10 |
| CCN1c2ncc(CCOc3ccc(C(=O)NC(C)(C)C(=O)O)cc3C)cc2C(=O)N(C)c2cccnc21 | IIIB | RT-K103N Y181C | nucleotide incorporation / radiometric | >1 |
| CCN1c2ncc(CCOc3cccc4c3ccc[n+]4[O-])cc2C(=O)Nc2c(C)cc(Cl)nc21 |  | RT-Y188L | nucleotide incorporation / radiometric | 562.5 |
| CCN1c2ncc(CCOc3ccc(-c4ccc(N)c(C(=O)O)c4)cc3C)cc2C(=O)N(C)c2cccnc21 | IIIB | RT-K103N Y181C | nucleotide incorporation / radiometric | 1 |
| CCN1c2ncc(CCOc3ccc4cc(CC(=O)O)ccc4c3C)cc2C(=O)N(C)c2cccnc21 |  | RT-K103N Y181C | nucleotide incorporation / radiometric | 1–10 |
| CCc1cc(NCc2nc3c(C)ccc(C)c3o2)c(=O)[nH]c1C |  | RT-K103N Y181C | nucleotide incorporation | >6000 |
| CCN1c2ncc(CCOc3ccc(C(=O)O)c4c3CCCC4)cc2C(=O)N(C)c2ccc(OC)nc21 |  | RT-Y188L | nucleotide incorporation / radiometric | 1–10 |
| Cc1c(Cc2ccccc2)nc(SCCCCO)[nH]c1=O |  | RT-Y188L |  | 0.829 |
| CCN1c2ncc(CCOc3ccc(C(=O)O)c4c3CCCC4)cc2C(=O)N(C)c2ccc(Cl)nc21 |  | RT-K103N Y181C | nucleotide incorporation / radiometric | 1–10 |
| NCCCCNc1nc(Cc2ccccc2)cc(=O)[nH]1 |  | RT-Y181L |  | >14.3 |
| CCN1c2ncc(CCOc3ccc(-c4cnc[nH]4)cc3C)cc2C(=O)N(C)c2cccnc21 | IIIB | RT-K103N Y181C | nucleotide incorporation / radiometric | 1 |
| CCN1c2ncc(CCOc3ccc(CCC(=O)O)c4ccccc34)cc2C(=O)N(C)c2ccc(Cl)nc21 |  | RT-K103N Y181C | nucleotide incorporation / radiometric | 1–10 |

A second listing of 3 rows from above:

smiles,strain or isolate,changes,method,result
CCN1c2ncc(CCOc3ccc4cc(CC(=O)O)ccc4c3C)cc2C(=O)N(C)c2cccnc21,,RT-K103N Y181C,nucleotide incorporation / radiometric,1–10
Cc1ccc(-n2c(SCC(=O)Nc3ccc(S(=O)(=O)NC(C(=O)O)C(C)C)cc3Cl)nnc2C(F)F)c2c1CCCC2,,RT-Y188L,nucleotide incorporation / radiometric,>2
CCN1c2ncc(CCOc3ccc(-c4ccc(N)c(C(=O)O)c4)cc3C)cc2C(=O)N(C)c2cccnc21,IIIB,RT-K103N Y181C,nucleotide incorporation / radiometric,1